Compound potency records, mixed from different reports. Data source: NIAID ChemDB in PubChem.

Common to all: target-level tests; species: Hepatitis C virus; target: Nonstructural protein 5B; read-out: IC50

Blank or dashed fields: not listed here. Lines come from different laboratories, so protocols vary. Two numbers with a dash give a range or band. ICn is the concentration giving n% inhibition.

structure | conditions | strain or isolate | method | value
NC(=O)c1ncn([C@@H]2O[C@H](COC(=O)c3ccc(S(=O)(=O)F)cc3)[C@@H](O)[C@H]2O)n1 |  |  |  | >1000 µM
O=C1CC(=O)OC(CCc2ccc(C3OCCO3)c(F)c2)(C2CCCC2)C1 |  |  |  | 1–10 µM
Nc1nc2c(ncn2[C@@H]2O[C@H](CO)[C@@H]3C[C@@]32F)c(=O)[nH]1 | genotype 1b |  | nucleotide incorporation | >100 µM
NC(=O)c1ncn([C@@H]2O[C@H](COC(=O)c3ccc(S(=O)(=O)F)cc3)[C@@H](O)[C@H]2O)n1 |  |  |  | >1000 µM
O=C(Nc1ccc2[nH]ncc2c1)c1cc(N2CCC(O)CC2)c(F)cc1F |  |  |  | 0.1–1 µg/mL
Cc1c(-c2ccoc2)n(C2CCCCC2)c2ccc(C(=O)O)cc12 |  |  |  | 0.88 µM
CN1CCN(c2cc(C(=O)Nc3ccc4[nH]ncc4c3)c(F)cc2F)CC1 |  |  |  | >10 µg/mL
O=C1CC(=O)OC(CCc2ccc(C(=O)N3CC[C@H](O)C3)cc2)(C2CCCC2)C1 |  |  |  | 10–50 µM
C/C=C/C/C=C/CCC(=O)[C@H]1O[C@H]1C(N)=O |  |  |  | >500 µM
O=C(O)c1ccc2c(C3CCCCC3)c(-c3ccoc3)[nH]c2c1 |  |  |  | 1.4 µM
O=C(OC[C@H]1O[C@@H](n2cnc3c(=O)[nH]cnc32)[C@H](O)[C@@H]1O)c1ccc(S(=O)(=O)F)cc1 |  |  |  | 280 µM
O=C(O)c1ccc2c(C3CCCCC3)c(-c3ccoc3)n(CC(=O)N3CCC(N4CCCC4)CC3)c2c1 |  |  |  | 0.015 µM
Cc1cc(SC2=C(O)CC(CCc3ccc(O)cc3)(C3CCCC3)OC2=O)c(C(C)(C)C)cc1OCCO |  |  |  | 1–10 µM
C[C@@]1(O)[C@H](O)[C@@H](COP(=O)(O)OP(=O)(O)OP(=O)(O)O)O[C@@]1(C#N)c1ccc2c(N)ncnn12 |  | 2a JFH-1 | radiometric | 1.3 µM
O=C(Nc1ccc2[nH]ncc2c1)c1cc(N2CCN(CCO)CC2)c(F)cc1F |  |  |  | 1–10 µg/mL
CC(C)c1ccc(CCC2(C3CCCC3)CC(=O)CC(=O)O2)cc1 |  |  |  | 1–10 µM
CCOC(=O)c1c(NC(=O)NS(=O)(=O)c2ccc(C#N)cc2)sc2c1CCC(C)(C)C2 |  |  |  | 0.4 µM
O=C(OC[C@H]1O[C@@H](n2cnc3c(=O)[nH]cnc32)[C@H](O)[C@@H]1O)c1ccc(S(=O)(=O)F)cc1 |  |  |  | 280 µM
C[C@@]1(O)[C@H](O)[C@@H](COP(=O)(O)OP(=O)(O)OP(=O)(O)O)O[C@H]1c1cnc2c(=O)[nH]c(N)nn12 |  | GT-1b Con1 | nucleotide incorporation | 0.31 µM
Cc1cc(SC2=C(O)CC(CCc3ccc(O)cc3)(C3CCCCC3)OC2=O)c(C(C)(C)C)cc1OS(=O)(=O)c1ccccc1 |  |  |  | 10–50 µM
Cn1c(-c2ccoc2)c(C2CCCCC2)c2ccc(C(=O)O)cc21 |  |  |  | 0.49 µM
C[C@@]1(O)[C@H](O)[C@@H](COP(=O)(O)OP(=O)(O)OP(=O)(O)O)O[C@H]1c1ccc2c(N)ncnn12 |  | GT5a | nucleotide incorporation | 0.48 µM
CCOc1ccc(CCC2(C3CCCC3)CC(=O)CC(=O)O2)cc1Cl |  |  |  | <1 µM